Reference: patent US20100120098
The exact form of at least one protein or probe is not confirmed.

Chains of the proteins cited; added tags and fusions are not shown. Lines headed by an entry give the natural chain unless they say otherwise; changes in a name come on top.
UniProt Q46731: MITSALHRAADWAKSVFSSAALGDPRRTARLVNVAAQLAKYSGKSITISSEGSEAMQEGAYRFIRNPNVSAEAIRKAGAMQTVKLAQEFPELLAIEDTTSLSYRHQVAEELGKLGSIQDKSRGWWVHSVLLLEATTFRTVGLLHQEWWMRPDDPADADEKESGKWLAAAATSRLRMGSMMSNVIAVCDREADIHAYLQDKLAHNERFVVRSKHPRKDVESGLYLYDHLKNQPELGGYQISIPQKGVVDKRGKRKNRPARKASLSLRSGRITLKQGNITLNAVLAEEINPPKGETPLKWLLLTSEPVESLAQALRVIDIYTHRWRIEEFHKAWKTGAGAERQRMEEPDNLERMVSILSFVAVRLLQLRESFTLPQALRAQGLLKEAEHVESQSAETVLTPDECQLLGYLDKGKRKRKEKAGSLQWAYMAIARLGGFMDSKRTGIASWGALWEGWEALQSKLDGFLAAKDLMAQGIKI

Molecular target: EZ-Tn5 hyperactive Tn5 transposase (UniProt Q46731)
Test: enzyme reaction in vitro
Settings: purified recombinant protein, protein details: EPICENTRE Biotechnologies EZ-Tn5 Transposase

AGATGTGTATAAGAGACAG (double strand) [MEDS]
activity on this sequence (5'-phosphate on non-transferred strand only, transposome fragmentation of target DNA, Mg, 37 or 55 C, improved by DMF): active

AGATGTGTATAAGAGACAG (double strand) [pMEDS]
activity on this sequence (5'-phosphate on both strands, fragmentation and tagging of T7 D111 DNA, good at 0.25 uM end, TA buffer, 10 mM Mg acetate, 37 C): active

GCCTCCCTCGCGCCATCAGAGATGTGTATAAGAGACAG / CTGTCTCTTATACACATCT [A-MEDS]
activity on this sequence (5'-phosphate on non-transferred strand, used mixed 1:1 with B-MEDS transposomes, Mg, 37 or 55 C): active

GCCTTGCCAGCCCGCTCAGAGATGTGTATAAGAGACAG / CTGTCTCTTATACACATCT [B-MEDS]
activity on this sequence (5'-phosphate on non-transferred strand, used mixed 1:1 with A-MEDS transposomes, Mg, 37 or 55 C): active

GCCTTGCCAGCCCGCTCAGATGTGTATAAGAGACAG / CTGTCTCTTATACACATCT [p454.1MEDS]
activity on this sequence (5'-phosphate on both strands, efficiency similar to pMEDS, no fragmentation without end or enzyme, 10 mM Mg acetate, 37 C): active
